Patent US20230256007A1 (priority 2022, published 2023)

System: patient with sequelae of infection with the delta variant of coronavirus
Details: Case 1; after 4 weeks of inhalation, about 4% to 5% hydrogen, approximately 3 hours a day; before inhalation severity 3: severe

`[HH]` [hydrogen gas, hydrogen] was tested, and the “Fatigue after exertion - loss of physical and mental endurance, fatigue aggravated by physical exertion: severity after inhalation (physician's diagnosis)” value was “severity 2: moderate”.
